PubChem BioAssay AID1259414 | Drosophila RNAi Screening Center, 2018

Assay: 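Genome-wide screen for host control of endosymbiont load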 (primary screen)
System: Drosophila JW18 cells infected with Wolbachia
Reagent: long dsRNA against Drosophila genes, 0.25 µg dsRNA per well of a 384-well plate
Duration: 5 days
Conditions: cells persistently infected with Wolbachia before knock-down; no added drug
Measurement: 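Imaged fluorescence in situ signal for Wolbachia 23S rRNA per DAPI-counted host cell, given as a robust z-score within each plate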
Direction: Wolbachia per cell robust z: higher = more Wolbachia per host cell than the plate typical
Hit rule: 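Hit when robust z is 1.5 or more, or -1.5 or less, in at least two of three replicates; excludes dsRNAs with several or no targets, genes not expressed in JW18 and well A1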
The deposit covers about 24,000 reagents; shown is a random part of those with a known target gene and a result. Over the whole deposit, about 1,210 (5%) were called active. 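Inactive calls also include excluded dsRNAs with several or no targets, genes unexpressed in JW18, and well A1, regardless of score.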 Reagents against one gene are numbered here. Names joined by + are all predicted targets of the reagent.

| Gene | dsRNA no. | Wolbachia per cell robust z, rep 1 | Wolbachia per cell robust z, rep 2 | Wolbachia per cell robust z, rep 3 | Call |
| --- | --- | --- | --- | --- | --- |
| M7BP (Myosin-7a binding protein) | 1 | -1.24 | -0.163 | -2.8 | inactive |
| M7BP (Myosin-7a binding protein) | 2 | -1.82 | -1.64 | -1.14 | active |
| M7BP (Myosin-7a binding protein) | 3 | 0.348 | -0.767 | -0.327 | inactive |
| M7BP (Myosin-7a binding protein) | 4 | 0.57 | -0.0036 | 0.857 | inactive |
| M7BP (Myosin-7a binding protein) | 5 | 1.56 | -5.99 | 1.44 | inactive |
| M7BP (Myosin-7a binding protein) | 6 | 0.174 | -1.18 | -1.68 | inactive |
| CG32264 | 1 | 0.279 | 0.282 | 0.699 | inactive |
| CG32264 | 2 | 1.15 | 0.444 | -2.42 | inactive |
| CG32264 | 3 | 0.0535 | 0.455 | -0.724 | inactive |
| CG32264 | 4 | -0.871 | -4.79 | -1.18 | inactive |
| CG32264 | 5 | -1.09 | -0.69 | -1.26 | inactive |
| Idgf1 (Imaginal disc growth factor 1) | 1 | -0.557 | -0.151 | -1.33 | inactive |
| Idgf1 (Imaginal disc growth factor 1) | 2 | 0.814 | 0.601 | 1.38 | inactive |
| CG42562 | 1 | -0.152 | -0.0377 | -2.53 | inactive |
| stac (staccato) | 1 | -0.585 | 0.5 | -0.077 | inactive |
| stac (staccato) | 2 | 0.0663 | 0.384 | -1.13 | inactive |
| stac (staccato) | 3 | 0.729 | -0.0908 | 0.235 | inactive |
| stac (staccato) | 4 | 0.271 | 1.62 | 0.991 | inactive |
| HDAC4 (Histone deacetylase 4) | 1 | -0.291 | 0.768 | 0.167 | inactive |
| HDAC4 (Histone deacetylase 4) | 2 | -0.475 | 0.86 | 0.441 | inactive |
| HDAC4 (Histone deacetylase 4) | 3 | 0.389 | -0.104 | 0.715 | inactive |
| GstO2 (Glutathione S transferase O2) | 1 | -0.143 | -0.982 | 0.852 | inactive |
| GstO2 (Glutathione S transferase O2) | 2 | 0.365 | -1.35 | -0.431 | inactive |
| Kr-h1 (Kruppel homolog 1) | 1 | 0.698 | 0.292 | 0.235 | inactive |
| Kr-h1 (Kruppel homolog 1) | 2 | -5.73 | -8.31 | 0.962 | inactive |
| Kr-h1 (Kruppel homolog 1) | 3 | -0.745 | -0.981 | -1.34 | inactive |
| CG33630 | 1 | 0.308 | -0.217 | -0.212 | inactive |
| Prim1 (DNA primase subunit 1) | 1 | 0.612 | 1.08 | 0.471 | inactive |
| CG14624 | 1 | 1.31 | 0.942 | 0.433 | inactive |
| CG14624 | 2 | 0.17 | -0.582 | 0.113 | inactive |
| CG3355 | 1 | -0.571 | 0.519 | -0.279 | inactive |
| tgo (tango) | 1 | -1.15 | -2.26 | -4.92 | active |
| tgo (tango) | 2 | 0.639 | 1.14 | 0.929 | inactive |
| CG34220 | 1 | -2.31 | 0.659 | -1.65 | active |
| Send2 (Spermathecal endopeptidase 2) | 1 | -0.763 | -1.22 | -1.03 | inactive |
| cbt (cabut) | 1 | -0.751 | 0.71 | -1.92 | inactive |
| cbt (cabut) | 2 | -0.793 | -0.482 | -0.818 | inactive |
| CG15578 | 1 | 0.954 | -0.26 | 0.298 | inactive |
| CG30177 | 1 | -0.912 | -0.361 | 0.197 | inactive |
| CG14280 | 1 | -0.147 | -2.08 | -0.312 | inactive |
| unc-5 | 1 | 0.457 | 0.187 | 0.371 | inactive |
| unc-5 | 2 | -3.17 | 0.149 | 0.0904 | inactive |
| unc-5 | 3 | 0.684 | 0.238 | 0.662 | inactive |
| ScpX | 1 | -6.54 | -0.615 | 0.391 | inactive |
| comm (commissureless) | 1 | 0.109 | 0.414 | 0.711 | inactive |
| comm (commissureless) | 2 | 0.191 | 2.53 | 1.94 | active |
| Tehao | 1 | -0.84 | -0.462 | -1.59 | inactive |
| Tehao | 2 | -0.494 | 0.652 | 0.429 | inactive |
| Pdzd8 (PDZ domain containing 8) | 1 | -0.191 | -0.326 | -1.47 | inactive |
| Pdzd8 (PDZ domain containing 8) | 2 | -0.518 | -0.0117 | 0.574 | inactive |
| CG32104 | 1 | -1.36 | -1.16 | -0.613 | inactive |
| CG32104 | 2 | -3.12 | -6.25 | -1.54 | active |
| CG32189 | 1 | 0.553 | 1.32 | -0.0272 | inactive |
| CG32189 | 2 | 0.56 | 2.33 | 0.32 | inactive |
| LeuRS (Leucyl-tRNA synthetase) | 1 | 0.464 | -1.05 | -1.71 | inactive |
| KP78b + KP78a | 1 | 0.419 | 0.21 | -0.175 | inactive |
| KP78b + KP78a | 2 | -0.116 | -0.619 | -1.07 | inactive |
| KP78b + KP78a | 3 | -0.508 | -0.103 | 0.115 | inactive |
| CG32121 | 1 | -0.744 | -0.569 | -2.38 | inactive |
| pkm (Pinkman) | 1 | -1.56 | 0.169 | 0.217 | inactive |
| pkm (Pinkman) | 2 | 0.0974 | -6.71 | -0.225 | inactive |
| nesd (nessun dorma) | 1 | 0.464 | -0.254 | 0.966 | inactive |
| nesd (nessun dorma) | 2 | -0.0317 | 0.155 | 0.0431 | inactive |
| CG13857 | 1 | 0.443 | 1.55 | -0.576 | inactive |
| CG3662 | 1 | 0.755 | 0.0768 | -0.455 | inactive |
| e(y)2b (enhancer of yellow 2b) | 1 | 0.199 | -0.835 | -0.36 | inactive |
| G6P (Glucose-6-Phosphatase) | 1 | -3.45 | -0.812 | 0.829 | inactive |
| garz (gartenzwerg) | 1 | -0.569 | 1.04 | -0.0883 | inactive |
| Hsp70Bb + Hsp70Ba + Hsp70Bbb + 1 more | 1 | 1.21 | 0.456 | 1.17 | inactive |
| Obp99b (Odorant-binding protein 99b) | 1 | 0.427 | 0.273 | 0.333 | inactive |
| Obp99b (Odorant-binding protein 99b) | 2 | 0.217 | 0.197 | 0.944 | inactive |
| Gpb5 (Glycoprotein hormone beta 5) | 1 | 0.398 | -0.141 | -0.451 | inactive |
| lncRNA:CR43174 (long non-coding RNA:CR43174) | 1 | 0.0814 | 0.398 | 0.278 | inactive |
| Pif1 (Pif1 DNA helicase) | 1 | -3.67 | -0.506 | 0.125 | inactive |
| Cyp4d14 (Cytochrome P450 4d14) | 1 | 0.243 | -1.62 | -0.0673 | inactive |
| Cyp4d14 (Cytochrome P450 4d14) | 2 | 0.65 | -0.604 | 0.725 | inactive |
| His3:CG33863 + His3:CG33806 + His3:CG33857 + 21 more | 1 | 2.74 | 5.2 | 7.72 | inactive |
| Nha1 (Na[+]/H[+] hydrogen antiporter 1) | 1 | 0.228 | 1.19 | -1.95 | inactive |
| Oscillin | 1 | 0.208 | -1.64 | -0.0881 | inactive |
| Oscillin | 2 | 0.764 | 1.31 | 1.09 | inactive |
| CtsK1 (Cathepsin K1) | 1 | -0.623 | -0.174 | -0.574 | inactive |
| Ggamma1 (G protein gamma subunit 1) | 1 | 0.494 | -1.23 | 0.204 | inactive |
| Art4 (Arginine methyltransferase 4) | 1 | 0.00377 | -2.59 | 0.519 | inactive |
| beat-VI (beaten path VI) | 1 | -2.48 | -1.25 | 0.119 | inactive |
| beat-VI (beaten path VI) | 2 | 0.25 | -3.73 | -5.3 | inactive |
| CG1738 | 1 | 1.2 | -0.358 | 0.45 | inactive |
| CG1738 | 2 | -2.57 | 0.807 | -0.108 | inactive |
